Results of unrelated studies side by side (data: NIAID ChemDB).

Shared fields: enzyme or target tests; species: HIV-1; target: Reverse transcriptase; read-out: Ki

Blank or dashed fields: not listed here. Lines come from different laboratories, so protocols vary.

O=C1c2cccnc2C(=O)N1CCNC(=S)Nc1ccc(Br)cn1 ; read by: nucleotide incorporation ; mutations: RT-K103N ; value: 0.015 µM
Nc1ccn([C@@H]2CS[C@H](COP(=O)(O)OP(=O)(O)OP(=O)(O)O)O2)c(=O)n1 ; read by: nucleotide incorporation / radiometric ; mutations: RT-K65R ; value: 15 µM
O=c1c2cccn2c2cc(Cl)c(Cl)cc2n1CCNC(=S)Nc1ccc(Br)cn1 ; read by: nucleotide incorporation ; mutations: RT-Y188L ; value: 0.15 µM
Cc1cn([C@H]2C=C[C@@H](COP(=O)(O)OP(=O)(O)OP(=O)(O)O)O2)c(=O)[nH]c1=O ; mutations: RT-Q161L H208Y ; value: 0.039 µM
Cc1cc(C)cc(C(=O)c2cc(Cl)ccc2OCCN2CCC(=O)NC2=O)c1 ; read by: RT activity ; setting: pseudotyped ; value: 2.4 µM
O=c1c2cccn2c2cccc(F)c2n1CCNC(=S)Nc1ccc(Br)cn1 ; read by: nucleotide incorporation ; mutations: RT-Y181I ; value: 0.2 µM
Nc1ncnc2c1ncn2CCOCP(=O)(O)OP(=O)(O)OP(=O)(O)O ; read by: nucleotide incorporation / radiometric ; mutations: RT-Q151M ; value: 0.22 µM
O=C(O)Cn1cnc2c(=O)[nH]c(NC(=O)OCc3ccccc3)nc21 ; read by: nucleotide incorporation / radiometric ; strain: NNRTI-resistant ; mutations: L100I ; value: 30 µM
Cc1cc(C)cc(C(=O)c2cc(Cl)ccc2OCCN2C(=O)NC(=O)C(C)C2C)c1 ; read by: RT activity ; setting: pseudotyped ; mutations: Y181C ; value: 0.21 µM
O=c1c2cccn2ccn1CCNC(=S)Nc1ccc(Br)cn1 ; read by: nucleotide incorporation ; mutations: RT-V106A ; value: 0.095 µM
Cc1cn([C@H]2CC[C@@H](COP(=O)(O)OP(=O)(O)OP(=O)(O)O)O2)c(=O)[nH]c1=O ; read by: RT activity ; mutations: RT-K103N ; value: 0.015 µM
Cc1cn([C@H]2C=C[C@@H](COP(=O)(O)OP(=O)(O)OP(=O)(O)O)O2)c(=O)[nH]c1=O ; read by: nucleotide incorporation / radiometric ; mutations: RT-L74V ; value: 0.31 µM
Cc1ccc2c(c1)n(CCNC(=S)Nc1ccc(Br)cn1)c(=O)c1cccn12 ; read by: nucleotide incorporation ; mutations: RT-K103N ; value: 0.5 µM
Nc1ncnc2c1ncn2[C@H]1CC[C@@H](COP(=O)(O)OP(=O)(O)OP(=O)(O)O)O1 ; read by: nucleotide incorporation / radiometric ; value: 0.19 µM
CC(C)(C)OC(=O)Cn1cnc2c(Oc3ccccc3[N+](=O)[O-])nc(NC(=O)OCc3ccccc3)nc21 ; read by: nucleotide incorporation / radiometric ; strain: NNRTI-resistant ; mutations: Y181I ; value: 40 µM

2 of the rows above, restated:

smiles | read by | setting | strain | mutations | value
Cc1cn([C@H]2CC[C@@H](COP(=O)(O)OP(=O)(O)OP(=O)(O)O)O2)c(=O)[nH]c1=O | RT activity |  |  | RT-K103N | 0.015 µM
Cc1cn([C@H]2C=C[C@@H](COP(=O)(O)OP(=O)(O)OP(=O)(O)O)O2)c(=O)[nH]c1=O |  |  |  | RT-Q161L H208Y | 0.039 µM